Calls of active or inactive are those of the source. No cut-off for these calls is given here.
Assays:
Homo sapiens = species on record: Homo sapiens; test: Modulation of Frizzled in human Caco2 cells assessed as protection against 0.25 to 1 ng/ml TcdB-induced cell rounding at 50 uM incubated for 24 hrs by phalloidin conjugated AlexaFluor488 dye based fluorescence microscopy relative to control
Frizzled-7 = Frizzled-7 (Homo sapiens, UniProt O75084); test: Binding affinity to recombinant human Frizzled-7 (Gln33 to Leu185 residues)/human IgG1 chimeric protein expressed in CHO cells assessed as association rate constant by SPR assay; format: cell-based

SMILES	Activity (Homo sapiens)	Ka (Frizzled-7) [×10⁵ /M/s]
CSCC[C@H](NC(=O)[C@@H](NC(=O)[C@H](Cc1cnc[nH]1)NC(=O)[C@H](CSSC[C@H](NC(=O)[C@H](Cc1c[nH]c2ccccc12)NC(=O)[C@H](Cc1ccccc1)NC(=O)[C@H](CCC(=O)O)NC(=O)[C@H](C)NC(=O)[C@H](CC(=O)O)NC(=O)[C@H](CC(=O)O)NC(=O)[C@H](CO)NC(=O)[C@@H]1CCCN1C(=O)[C@H](CC(C)C)NC(C)=O)C(=O)N[C@@H](Cc1cnc[nH]1)C(=O)N[C@H](C(=O)N[C@@H](CCSC)C(=O)N[C@@H](Cc1ccc(O)cc1)C(N)=O)C(C)C)NC(=O)[C@H](Cc1c[nH]c2ccccc12)NC(=O)[C@H](Cc1ccccc1)NC(=O)[C@H](CCC(=O)O)NC(=O)[C@H](C)NC(=O)[C@H](CC(=O)O)NC(=O)[C@H](CC(=O)O)NC(=O)[C@H](CO)NC(=O)[C@@H]1CCCN1C(=O)[C@H](CC(C)C)NC(C)=O)C(C)C)C(=O)N[C@@H](Cc1ccc(O)cc1)C(N)=O	inactive	–
CSCC[C@H](NC(=O)[C@@H](NC(=O)[C@H](Cc1cnc[nH]1)NC(=O)[C@H](C[Se][Se]C[C@H](NC(=O)[C@H](Cc1c[nH]c2ccccc12)NC(=O)[C@H](Cc1ccccc1)NC(=O)[C@H](CCC(=O)O)NC(=O)[C@H](CC(C)C)NC(=O)[C@H](CC(=O)O)NC(=O)[C@H](CC(=O)O)NC(=O)[C@H](CO)NC(C)=O)C(=O)N[C@@H](Cc1cnc[nH]1)C(=O)N[C@H](C(=O)N[C@@H](CCSC)C(=O)N[C@@H](Cc1ccc(O)cc1)C(N)=O)C(C)C)NC(=O)[C@H](Cc1c[nH]c2ccccc12)NC(=O)[C@H](Cc1ccccc1)NC(=O)[C@H](CCC(=O)O)NC(=O)[C@H](CC(C)C)NC(=O)[C@H](CC(=O)O)NC(=O)[C@H](CC(=O)O)NC(=O)[C@H](CO)NC(C)=O)C(C)C)C(=O)N[C@@H](Cc1ccc(O)cc1)C(N)=O	–	52.7

Reference: ChEMBL document CHEMBL4373723 (J Med Chem, 2019)
